# In the supplement of paper PMC12637763:
# Substitutions are numbered along the chain they refer to. Some of the results follow. Env chains of viruses from a treatment-interruption trial, translated from the printed DNA. IC50 / IC80 of two broadly neutralizing antibodies; lower = more sensitive virus; >50 µg/ml means not reached and <0.001 µg/ml is below the lowest dose. No active / inactive call.
# B1: HIV-1 Env, rebound clone, antibody arm (protein)
# chain: MRVKGIRRNYQHWWRGDIWRWGMMLLGMLMICSATGSLWVTVYYGVPVWKEATTTLFCASDAKAYDTEAHNVWATHACVPTDPNPQEVPLVNVTENFNMWKNNMVEQMHEDIISLWDQSLKPCVKLTPLCVTLHCTEIGTNATNNSSHNPNPTTNSSTSPTPMGEIKNCSFNVTTNRRDKVQKTYAFFYNMDIKQIAEEDNTSYILTSCNTSVITQACPKVSFEPIPIHYCAPAGFAILKCNDTNFNGTGPCKNVTTVQCTHGIKPVVSTQLLLNGSLARGEVMIRSENISNNAKIIIVQLKEPVEINCTRPNNNTRKSITIGPGRAFFGTDIIGGIRQAHCNISREKWNYTLYQISEKLRSHFVNKTIVFNQSSGGDPEIVMHSFNCGGEFFYCDTSKLFNSTWHTNSTANNTGDNSTVTLPCRIKQIVNMWQEVGKAMYAPPIKGPIRCSSKITGVLLTRDGGTNNTNTTETFRPAGGDMRDNWRSELYKYKVVQIEPLGIAPTQAKRRVVQRDKRAVGIGALFLGFLGTAGSTMGAASITLTVQARNLLSGIVQQQNNLLRAIEAQQHLLQLTVWGIKQLQARVLAVESYLKDQQLLGIWGCSGKLICTTAVPWNNSWSNKSLDYIWNNMTWMEWEREIDNYTEYIYDLLEASQNQQEKNEQELLALDKWASLWSWFSITQWLWYIKLFLIIVGGLIGLRIVFAVFSIVNRVRQGYSPLSLQTLLPAQRGPDRPEGIEEEGGEQDRGRSIRLVDGFLALFWDDLRSLCLFSYHRLRDLLLIVTRIVELLGRRGWETLKYCWNLLQYWGQELKKSAVSLFNFSAIAVAEGTDRVIEVVQRIWRAIIHIPRRIRQGLEGALL
# B2: HIV-1 Env, rebound clone, antibody arm (protein)
# chain: MRVREIRRNYLWRWGTLLLGILMMICSADNWWVTVYYGVPVWKEATTTLFCASDAKAYETEVHNVWATHACVPTDPNPQEVALENVTENFNMWKNNMVEQMQEDIISLWDQSLKPCVELTPLCVTLNCTNVNNTRTNSTISGPTAKPGEEEMKNCSFNITTGIRDKIKKEYALFYKLDVVPIDDSNTSYRLISCNTSVIKQACPKVSFEPIPIHYCAPAGFAILKCRDKQFNGTGPCRNVSTVQCTHGIKPVVTTQLLLNGSLAEEEVVIRSANFSDNAKIIIVQLNESVQINCTRPNNNTRKSIPIGPGRAFYATGDIIGDIRQAHCSISKTRWNNTLKLIREKLKTQFGDKTIVFNQSSGGDPEIVTHSFNCGGEFFYCNTTPLFNSTEGSNTTAENNTTDIITLQCRIKQIINMWQKVGKAMYAPPIRGNISCSSNITGLLLTRDGGNTTDNGSEIFRPGGGDMRDNWRSELYKYKVVKIEPIGLAPTKAKRRVVQREKRALGMGALFLGFLGAAGSTMGAASVTLTVQARQLLSGIVQQQNNLLRAIEAQQHLLQLTVWGIKQLQARVLAVESYLRDQQLLGIWGCSGKLICTTAVPWNISWSKSKSWNKTNLADIWENMTWMQWESEIDNYTNIIYQLIEESQNQQEKNEKDLLELDKWASLWNWFSISNWLWYIKLFIMIVGGLIGLRIIFSVLSIVNRVRQGYSPLSFQTRPPAARGHDRPEGIEEGGGDRDRDRSNQLVDGFLALIWVDLRSLCLFSYHRLRDFLLVVTRIVELLGRRGWEILKYWWNLLQYWSQELKNSAVSLLNATAIAVAEGTDRVIEIVQRAFRAIIHIPTRIRQGFERALL
# B3: HIV-1 Env, rebound clone, antibody arm (protein)
# chain: B2 chain with V368A
# B4: HIV-1 Env, rebound clone, antibody arm (protein)
# chain: B2 chain with G248E
# B5: HIV-1 Env, rebound clone, antibody arm (protein)
# chain: MKVKGIRKNWPHLWWTWGTMLLGMLMICSAVDQSWVTVYYGVPVWKEANTTLFCASDAKAYHTEAHNVWATHACVPTDPDPQEVVLENVTENFNMWKNNMVEQMHEDIISLWDQSLKPCVKLTPLCVTLNCTDFCRNDSCRNDSYGNNSYSMGNIEKGEIKNCSFNITTDIGEKKNNIYALFYKLDITPINNTTYRMISCNTSVITQACPKISFEPIPIHYCTPAGFALLKCNDKKFNGTGLCKNVSTVQCTHGIKPVVSTQLLLNGSLAEEEVVVRSENLTDNSKTIIVQLNETVKINCIRPNNNTRTGINIGPGRAWYATTDIIGDIRQAHCNIRKDQWNKTLQQVAIKLREQFGNNKTIIFKQSSGGDPEIVMHSVNCGGEFLYCNTTQLFNSTWDNDALNSTWNNTSASNEGNISLPCRIKQIINRWQGVGKAMYAPPIQGIIKCSSNITGLLLTRDGGNTGNQSNSNETFRPGGGNMRDNWRSELYKYKVVKIEPLGVAPTRARRRVVQREKRAVGTIGAMFLGFLGAAGSTMGAASMTLTVQARQLLSGIVRQQNNLLKAIEAQQHLLQLTVWGIKQLQARVLAVERYLKDQQLLGIWGCSGKLICTTSVPWNASWSNKSLDQIWNNMTWMEWEREVGNYTQLIYTLIEESQNQQEKNEQELLELDKWDSLWNWFTITKWLWYIKIFIMIVGGLIGLRIVFAVLSIVKKVRQGYSPLSLQTLLPAQRGPDRPEGTDEEGGERGSDTSVRLVTGFLALFWDDLRSLCLFSYHHLRDLLLIVARIVELLGRRGWEVLKYWWNLLQYWIQELKNSAVSLLNTTAIAVAEGTDRIIEVIQRIFRAFLHIPRRIRQGLERALL
# B6: HIV-1 Env, rebound clone, antibody arm (protein)
# chain: B5 chain with K715R
# What was measured:
# antibody 10-1074 [1] = test: neutralization IC50; higher = virus less sensitive to the antibody
# Experimental: (§1)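 Pseudovirus bearing the Env chain mixed with antibody, from 50 µg/ml in fivefold dilutions, on TZM-bl reporter cells, in duplicate.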
# antibody 3BNC117 [2] = test: as above
# Experimental: as §1
# antibody 10-1074 [3] = test: neutralization IC80; higher = virus less sensitive to the antibody
# Experimental: as §1
# antibody 3BNC117 [4] = test: as above
# Experimental: as §1
Binder,neutralization IC50 (antibody 10-1074 [1]) [µg/mL],neutralization IC50 (antibody 3BNC117 [2]) [µg/mL],neutralization IC80 (antibody 10-1074 [3]) [µg/mL],neutralization IC80 (antibody 3BNC117 [4]) [µg/mL]
B1,5.27,0.063,> 50,0.224
B2,> 50,0.279,> 50,0.929
B3,> 50,0.232,> 50,1.03
B4,> 50,0.199,> 50,0.641
B5,18.4,0.063,46,0.175
B6,> 50,0.066,> 50,0.186
